Share of PSTVd loop 15 variants by leaf site

Reference: Wu et al. 2024, doi:10.1371/journal.ppat.1012142.

PSTVd intermediate strain, loop 15: wild type GGAAACCGCUACUAC, pool pattern GGAAACCGNNNNNNC; upper and lower strand joined, each 5' to 3', the first 7 letters being the upper strand, closing pairs included.

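Three N. benthamiana plants were inoculated with the whole mutant pool. Samples came from the inoculated region at 5 days, the leaf margin at 10 and upper systemic leaves at 12.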

Values are reads per thousand in the sample; higher means more abundant, 0 means not found.
Each site shows the three plants.
"Pool" is the share in the plasmid pool used as inoculum, on the same scale.
The inoculated region was read from the minus strand, the other sites from the plus strand.
IR is the inoculated region, LM the leaf margin, Sys the systemic leaves.
Sequences that differ at fixed positions probably stem from PCR or sequencing errors, and defective variants can be carried along by functional ones.
Samples held 43,870 to 66,106 reads, so the smallest values rest on one or two reads.
For reference, wild type rose from 33.9 per thousand in the pool to 202, 200, 159 (inoculated region), 724, 746, 710 (leaf margin) and 856, 883, 880 (systemic leaves).

{"sequence": "GGAAACCGGGCCGGC", "pool": "0.240", "IR": "0.0819 / 0.0482 / 0.0952", "LM": "0 / 0 / 0", "Sys": "0.0161 / 0 / 0"}
{"sequence": "GGAAACCGGGCCGUC", "pool": "0.240", "IR": "0.0983 / 0.145 / 0.133", "LM": "0.0162 / 0.0223 / 0.0601", "Sys": "0 / 0 / 0"}
{"sequence": "GGAAACCGGGCCUAC", "pool": "0.256", "IR": "0.0983 / 0.0803 / 0.114", "LM": "0.0323 / 0.0223 / 0", "Sys": "0.0161 / 0 / 0"}
{"sequence": "GGAAACCGGGCCUCC", "pool": "0.272", "IR": "0.0983 / 0.112 / 0.171", "LM": "0.0162 / 0.0223 / 0.0200", "Sys": "0 / 0 / 0"}
{"sequence": "GGAAACCGGGCCUGC", "pool": "0.176", "IR": "0.115 / 0.0482 / 0.0571", "LM": "0.0485 / 0 / 0", "Sys": "0 / 0 / 0"}
{"sequence": "GGAAACCGGGCCUUC", "pool": "0.240", "IR": "0.147 / 0.0964 / 0.0381", "LM": "0 / 0 / 0.0200", "Sys": "0 / 0 / 0"}
{"sequence": "GGAAACCGGGCGAAC", "pool": "0.240", "IR": "0.115 / 0.0643 / 0.0571", "LM": "0.0162 / 0.0445 / 0", "Sys": "0 / 0 / 0.0228"}
{"sequence": "GGAAACCGGGCGACC", "pool": "0.240", "IR": "0.0819 / 0.129 / 0.0952", "LM": "0 / 0 / 0", "Sys": "0 / 0 / 0"}
{"sequence": "GGAAACCGGGCGAGC", "pool": "0.208", "IR": "0.0983 / 0.0803 / 0.0762", "LM": "0 / 0 / 0.0200", "Sys": "0 / 0 / 0"}
{"sequence": "GGAAACCGGGCGAUC", "pool": "0.256", "IR": "0.115 / 0.112 / 0.114", "LM": "0 / 0 / 0", "Sys": "0.0161 / 0 / 0"}
{"sequence": "GGAAACCGGGCGCAC", "pool": "0.144", "IR": "0.115 / 0.129 / 0.209", "LM": "0 / 0 / 0.0401", "Sys": "0 / 0 / 0"}
{"sequence": "GGAAACCGGGCGCCC", "pool": "0.256", "IR": "0.115 / 0.112 / 0.0762", "LM": "0 / 0 / 0", "Sys": "0.0161 / 0 / 0"}
{"sequence": "GGAAACCGGGCGCGC", "pool": "0.256", "IR": "0.164 / 0.0964 / 0.152", "LM": "0 / 0 / 0.0401", "Sys": "0 / 0 / 0"}
{"sequence": "GGAAACCGGGCGCUC", "pool": "0.160", "IR": "0.442 / 0.209 / 0.267", "LM": "0.0162 / 0 / 0.0200", "Sys": "0.0322 / 0 / 0"}
{"sequence": "GGAAACCGGGCGGAC", "pool": "0.192", "IR": "0.115 / 0.193 / 0.0571", "LM": "0.0162 / 0 / 0.0200", "Sys": "0 / 0 / 0"}
{"sequence": "GGAAACCGGGCGGCC", "pool": "0.240", "IR": "0.0819 / 0.145 / 0.190", "LM": "0.0162 / 0 / 0.0200", "Sys": "0 / 0 / 0"}
{"sequence": "GGAAACCGGGCGGGC", "pool": "0.160", "IR": "0.0819 / 0.0803 / 0.0381", "LM": "0 / 0 / 0.0200", "Sys": "0 / 0 / 0"}
{"sequence": "GGAAACCGGGCGGUC", "pool": "0.256", "IR": "0.459 / 0.691 / 0.457", "LM": "0.0162 / 0 / 0.0401", "Sys": "0.0161 / 0 / 0"}
{"sequence": "GGAAACCGGGCGUAC", "pool": "0.176", "IR": "0.278 / 0.305 / 0.400", "LM": "0.178 / 0.111 / 0.120", "Sys": "0.0644 / 0.0303 / 0.0456"}
{"sequence": "GGAAACCGGGCGUCC", "pool": "0.224", "IR": "0.0983 / 0.0321 / 0.133", "LM": "0.0323 / 0 / 0.0401", "Sys": "0.0161 / 0 / 0"}
{"sequence": "GGAAACCGGGCGUGC", "pool": "0.240", "IR": "0.115 / 0.0803 / 0.0762", "LM": "0.0162 / 0.0223 / 0", "Sys": "0 / 0 / 0"}
{"sequence": "GGAAACCGGGCGUUC", "pool": "0.272", "IR": "0.295 / 0.289 / 0.533", "LM": "0.0647 / 0.0445 / 0.120", "Sys": "0.0322 / 0 / 0"}
{"sequence": "GGAAACCGGGCUAAC", "pool": "0.224", "IR": "0.115 / 0.0803 / 0.133", "LM": "0 / 0.0223 / 0.0200", "Sys": "0 / 0 / 0"}
{"sequence": "GGAAACCGGGCUACC", "pool": "0.144", "IR": "0.115 / 0.0482 / 0.0952", "LM": "0.0162 / 0.0223 / 0", "Sys": "0 / 0 / 0"}
{"sequence": "GGAAACCGGGCUAGC", "pool": "0.224", "IR": "0.0655 / 0.112 / 0.0762", "LM": "0.0162 / 0 / 0.0401", "Sys": "0 / 0 / 0"}
{"sequence": "GGAAACCGGGCUAUC", "pool": "0.240", "IR": "0.0983 / 0.0803 / 0.0762", "LM": "0 / 0 / 0", "Sys": "0 / 0 / 0"}
{"sequence": "GGAAACCGGGCUCAC", "pool": "0.224", "IR": "0.180 / 0.0643 / 0.0571", "LM": "0 / 0 / 0", "Sys": "0 / 0 / 0"}
{"sequence": "GGAAACCGGGCUCCC", "pool": "0.128", "IR": "0.131 / 0.129 / 0.0571", "LM": "0.0162 / 0 / 0.0401", "Sys": "0 / 0 / 0"}
{"sequence": "GGAAACCGGGCUCGC", "pool": "0.256", "IR": "0.0655 / 0.145 / 0.0571", "LM": "0 / 0 / 0.0401", "Sys": "0 / 0 / 0"}
{"sequence": "GGAAACCGGGCUCUC", "pool": "0.160", "IR": "0.115 / 0.0803 / 0.0381", "LM": "0 / 0 / 0", "Sys": "0 / 0 / 0"}
{"sequence": "GGAAACCGGGCUGAC", "pool": "0.160", "IR": "0.0819 / 0.112 / 0.152", "LM": "0.0323 / 0.0223 / 0", "Sys": "0 / 0 / 0"}